Results published in paper PMC6943496, “Antiplasmodial Activity of Nitroaromatic Compounds: Correlation with Their Reduction Potential and Inhibitory Action on Plasmodium falciparum Glutathione Reductase” (Molecules, 2019).

By UniProt entry, the sequences of proteins in these tests, tags left out. Residues count along the entry.
UniProt P00390, 44-522 limits assumed: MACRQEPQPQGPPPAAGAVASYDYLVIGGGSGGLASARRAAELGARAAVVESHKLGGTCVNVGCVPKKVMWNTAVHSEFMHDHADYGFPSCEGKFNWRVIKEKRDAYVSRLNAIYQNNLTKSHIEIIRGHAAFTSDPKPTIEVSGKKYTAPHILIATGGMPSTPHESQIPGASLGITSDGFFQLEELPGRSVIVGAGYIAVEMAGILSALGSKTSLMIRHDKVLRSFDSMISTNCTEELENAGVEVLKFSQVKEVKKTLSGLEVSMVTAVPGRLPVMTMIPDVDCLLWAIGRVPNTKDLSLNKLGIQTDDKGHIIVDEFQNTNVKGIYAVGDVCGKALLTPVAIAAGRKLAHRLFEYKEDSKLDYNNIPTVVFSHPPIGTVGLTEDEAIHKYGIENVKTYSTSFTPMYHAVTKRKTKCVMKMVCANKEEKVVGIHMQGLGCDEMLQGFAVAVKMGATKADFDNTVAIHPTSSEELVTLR

Legend:
[1] = molecular target: P. falciparum glutathione reductase (PfGR) (Plasmodium falciparum, UniProt Q94655); assay: NADPH oxidation at […] nm, Cleland plot ([…]/kcat vs [I]); details: read-out: Ki (μM) / PfGR ^a; 100 μM NADPH, varied GSSG (0.13-1.0 mM), pH 7.0, 25 °C, 0.1 M K-phosphate, 1 mM EDTA; non- or uncompetitive vs GSSG
[2] = molecular target: Human erythrocyte glutathione reductase (HGR) (Homo sapiens, UniProt P00390); assay: enzyme kinetics, inhibition of GSSG reduction; details: read-out: Ki (μM) / HGR ^b; 100 μM NADPH, varied GSSG, pH 7.0, 25 °C
Description: enzyme kinetics, inhibition of GSSG reduction on Human erythrocyte glutathione reductase (HGR)

SMILES | Ki [1] | Ki [2]
O=C(NCCN1CCOCC1)c1cc(/C=C/c2ccc([N+](=O)[O-])o2)nc2ccccc12 | 75 µM | –
O=C(O)c1cc(/C=C/c2ccc([N+](=O)[O-])o2)nc2ccccc12 | 9 µM | 3.5 µM
O=C(NCCCN1CCOCC1)c1cc(/C=C/c2ccc([N+](=O)[O-])o2)nc2ccccc12 | 35 µM | –
NCCCNC(=O)c1cc(/C=C/c2ccc([N+](=O)[O-])o2)nc2ccccc12 | 5 µM | –
NC(=O)c1cc(/C=C/c2ccc([N+](=O)[O-])o2)nc2ccccc12 | 25 µM | –
O=C(NCCCO)c1cc(/C=C/c2ccc([N+](=O)[O-])o2)nc2ccccc12 | 50 µM | –
